# Measured values taken from PubChem BioAssay AID588501 (NMMLSC, 2011).
# The list shows a part of the results, in another mix than the full data. Some salts and complexes are drawn in separate pieces, as the source files them; their charges need not balance. The source made the active and inactive calls. Cut-off read from the data, not from the text of the source: active = inhibition above about 30%; inconclusive = no clear call, values can overlap the other calls; inactive = below that.
# Target: Lethal factor (Bacillus anthracis) (UniProt P15917)
# Experiment: anthrax lethal factor cleavage blockers – biochemical, multiplex microsphere, MLPCN library, primary screen (AID 588501); note: plate controls were buffer without enzyme for full effect and enzyme alone for no effect
# Details: multiplex microsphere protease cleavage assay, LF; at 10 µM; stronger effect = higher value
row,Structure (SMILES),inhibition
1,CCCCCCCCCCCCCCCC1C[N+](C)(C)CCOP(C)(=O)O1 (stereo not drawn),inactive: -7.5%
2,CP(=O)(Nc1ccc(Cl)cc1Cl)Oc1ccccc1 (stereo not drawn),inactive: 3.5%
3,CP(=O)(OCCOc1ccccc1)OCCOc1ccccc1,inactive: -5.2%
4,COc1ccc(OP(C)(=O)Nc2ccccc2Br)cc1 (stereo not drawn),inactive: -1.4%
5,COc1ccccc1OP(C)(=O)Nc1ccc(C)c(C)c1 (stereo not drawn),inactive: -0.9%
6,O=C1C(O)=C([N+](=O)[O-])C(=O)C(O)=C1[N+](=O)[O-],inactive: 2.3%
7,Cc1cc(C)cc(OP(C)(=O)Nc2cccc(C(F)(F)F)c2)c1 (stereo not drawn),inactive: -7.6%
8,CCc1ccc(OP(C)(=O)O)cc1,inactive: 1.5%
9,CP(=O)(Nc1ccccn1)Oc1ccccc1 (stereo not drawn),inactive: -4%
10,COc1ccccc1OP(C)(=O)Nc1ccc(C)cc1C (stereo not drawn),inactive: 5.5%
11,Cc1c(NP(C)(=O)Oc2ccc(C(C)C)cc2)c(=O)n(-c2ccccc2)n1C (stereo not drawn),inactive: 3.4%
12,O=[N+]([O-])c1cc([N+](=O)[O-])c(Nc2ccccn2)c([N+](=O)[O-])c1,inactive: -1.7%
13,CN(C)CCOC(=O)C(O)(c1ccccc1)C1CCCC1 (stereo not drawn),inactive: 0.4%
14,COc1ccc(OP(C)(=O)Nc2ccccn2)cc1 (stereo not drawn),inactive: -3.5%
15,COc1ccccc1OP(C)(=O)Nc1ccc(Br)cc1 (stereo not drawn),inactive: 2%
16,CN(C)C(=O)c1c([N+](=O)[O-])cc([N+](=O)[O-])cc1[N+](=O)[O-],inactive: -2.1%
17,CP(=O)(Nc1ccc(Cl)cc1)Oc1ccc(F)cc1 (stereo not drawn),inactive: -2.2%
18,COc1ccccc1OP(C)(=O)Nc1ccccc1Br (stereo not drawn),inactive: -3.7%
19,CC(C)(C)c1ccc(OP(C)(=O)O)cc1,inactive: -4.4%
20,CP(=O)(Oc1ccccc1)N1CCOC1=O (stereo not drawn),inactive: 1.5%
21,CCc1ccc(OP(C)(=O)Nc2cccnc2)cc1 (stereo not drawn),inactive: -6.5%
22,COc1ccccc1OP(C)(=O)Nc1c(C)n(C)n(-c2ccccc2)c1=O (stereo not drawn),inactive: 3.5%
23,O=C(OCCCN1CCCC1)C(O)(c1ccccc1)C1CCCCC1 (stereo not drawn),inactive: 2.6%
24,CCN(CC)CC(O)COC(=O)C(O)(c1ccccc1)C1CCCCC1 (stereo not drawn),inactive: 3.2%
25,COc1ccc(OP(C)(=O)Nc2ccc(Br)cc2)cc1 (stereo not drawn),inactive: 0.1%
26,CP(=O)(OC12CC3CC(CC(C3)C1)C2)OC12CC3CC(CC(C3)C1)C2,inactive: -2.1%

row,Structure (SMILES),inhibition
1,CCOC(=O)c1ccc(NP(C)(=O)Oc2ccc(Cl)cc2)cc1 (stereo not drawn),inactive: -5.1%
2,Cc1c(C(c2ccc3c(c2)OCO3)c2c(C)n(C)n(-c3ccccc3)c2=O)c(=O)n(-c2ccccc2)n1C.O=[N+]([O-])c1cc([N+](=O)[O-])c(O)c([N+](=O)[O-])c1,inactive: -7.8%
3,O=[N+]([O-])c1cc([N+](=O)[O-])c(NCC2CCS(=O)(=O)C2)c([N+](=O)[O-])c1 (stereo not drawn),inactive: -1%
4,Cc1cc(-c2cccc3ccccc23)c(C)cn1.O=[N+]([O-])c1cc([N+](=O)[O-])c(O)c([N+](=O)[O-])c1,inactive: -9.1%
5,O=[N+]([O-])c1ccc(OP2(=O)COCCO2)cc1 (stereo not drawn),inactive: -3.4%
6,COc1ccc(NP(C)(=O)Oc2ccccc2OC)cc1 (stereo not drawn),inactive: -1.3%
7,CN(C)CCOC(=O)C(O)(c1ccccc1)C1CCCCC1 (stereo not drawn),inactive: -4.4%
8,CN(C)C1(CNC(=O)c2ccc(Cl)c(S(N)(=O)=O)c2)CCCCC1,inactive: -8.7%
9,COc1ccc(OP(C)(=O)Nc2cccc(Br)c2)cc1 (stereo not drawn),inactive: -9%
10,O=[N+]([O-])c1cc([N+](=O)[O-])c(C(F)(F)F)c([N+](=O)[O-])c1O,inactive: 1%
11,Cc1ccccc1NP(C)(=O)Nc1ccccc1C,inactive: 1.5%
12,CP(=O)(Nc1ccc2c(c1)OCCO2)Oc1ccccc1 (stereo not drawn),inactive: -1.2%
13,CCOP(C)(=S)SCC(=O)NC(C)(CC)C(=O)O (stereo not drawn),inactive: -3.4%
14,CP(=O)(Nc1ccc(SC(F)(F)F)cc1)Oc1ccc(F)cc1 (stereo not drawn),inactive: -7.5%
15,COc1ccc2c(c1O)-c1c(O)c(OC)cc3c1[C@H](C2)[N+](C)(C)CC3.O=[N+]([O-])c1cc([N+](=O)[O-])c([O-])c([N+](=O)[O-])c1[O-],inactive: -4.6%
16,O=C(OCCN1CCN(CCOCc2ccccc2)CC1)C(O)(c1ccccc1)c1ccccc1,inactive: -0.1%
17,O=C(OC1CN2CCC1CC2)c1ccc([N+](=O)[O-])cc1 (stereo not drawn),inactive: -4%
18,CC(C)c1ccc(OP(C)(=O)Nc2ccc(SC(F)(F)F)cc2)cc1 (stereo not drawn),inactive: 1.2%
19,CP(=O)(Nc1ccccc1F)Oc1ccccc1 (stereo not drawn),inactive: -5.1%
20,O=[N+]([O-])c1cc([N+](=O)[O-])c(Nc2ccc(Cl)cc2)c([N+](=O)[O-])c1,inactive: -3.2%
21,CCCCCOc1ccc(NP(C)(=O)Oc2ccc(Cl)cc2Cl)cc1 (stereo not drawn),inactive: 18.5%
22,O=[N+]([O-])c1cc([N+](=O)[O-])c(OC2CCCCC2O)c([N+](=O)[O-])c1 (stereo not drawn),inactive: 6.3%
23,CP(=O)(Nc1ccccc1)Oc1ccc(F)cc1 (stereo not drawn),inactive: -3.7%
24,CCN(CC)CCCOC(=O)C(O)(c1ccccc1)C1CCCCC1 (stereo not drawn),inactive: -1.8%
25,Cc1c([N+](=O)[O-])cc([N+](=O)[O-])c(Br)c1[N+](=O)[O-],inactive: -5.1%
26,COc1ccc(OP(C)(=O)Nc2ccc(SC(F)(F)F)cc2)cc1 (stereo not drawn),inactive: -0.7%

row,Structure (SMILES),inhibition
1,CCOC(=O)c1ccc(NP(C)(=O)Oc2ccc(F)cc2)cc1 (stereo not drawn),inactive: -1.8%
2,CCN(CC)CCCNc1ccccc1[N+](=O)[O-].O=[N+]([O-])c1cc([N+](=O)[O-])c(O)c([N+](=O)[O-])c1,inactive: -5.7%
3,CC1=NCCc2c1[nH]c1ccccc21.O=[N+]([O-])c1cc([N+](=O)[O-])c(O)c([N+](=O)[O-])c1,inactive: 2.7%
4,O=C(O)c1cccc(Nc2c([N+](=O)[O-])cc([N+](=O)[O-])cc2[N+](=O)[O-])c1,inactive: 3.3%
5,Cc1cc(C)cc(OP(C)(=O)Nc2ccccn2)c1 (stereo not drawn),inactive: 2.5%
6,CP(=O)(Nc1cccc(Br)c1)Oc1ccccc1 (stereo not drawn),inactive: -6.7%
7,Cc1ccc(C)c(NP(C)(=O)Oc2ccccc2)c1 (stereo not drawn),inactive: -1.4%
8,Cc1cc(C)cc(OP(C)(=O)Nc2ccc(C)cc2C)c1 (stereo not drawn),inactive: -2.4%
9,CCOC(=O)c1ccc(NP(C)(=O)Oc2cc(C)cc(C)c2)cc1 (stereo not drawn),inactive: 0.5%
10,COc1cc(C(=O)NCC2(N3CCOCC3)CCCCC2)cc(Cl)c1OC(C)C,inactive: -0.4%
11,COc1ccccc1OP(C)(=O)Nc1cccc(Br)c1 (stereo not drawn),inactive: 0.7%
12,Cc1nc2ccc3ccccc3c2s1.O=[N+]([O-])c1cc([N+](=O)[O-])c(O)c([N+](=O)[O-])c1,inactive: 0.4%
13,O=[N+]([O-])c1cc([N+](=O)[O-])c(-c2cnn(-c3ccccc3)c2)c([N+](=O)[O-])c1,inactive: 12.4%
14,CN(Cc1cccnc1)C(=O)COc1ccc(Cl)c(Cl)c1.O=[N+]([O-])c1cc([N+](=O)[O-])c(O)c([N+](=O)[O-])c1,inactive: -10.6%
15,O=[N+]([O-])c1cc([N+](=O)[O-])c(-n2nnc3ccccc32)c([N+](=O)[O-])c1,inactive: 2.1%
16,CCCOc1ccc(NP(C)(=O)Oc2ccc(Cl)cc2)cc1 (stereo not drawn),inactive: -4.3%
17,CP(=O)(Nc1ccc(SC(F)(F)F)cc1)Oc1ccccc1 (stereo not drawn),inactive: 2.6%
18,COc1ccc(-c2ccccn2)cc1.O=[N+]([O-])c1cc([N+](=O)[O-])c(O)c([N+](=O)[O-])c1,inactive: -9.2%
19,COc1ccccc1OP(C)(=O)Nc1c(C)cccc1C (stereo not drawn),inactive: -4.6%
20,CN1CCCCC1COC(=O)C1(O)c2ccccc2CCc2ccccc21 (stereo not drawn),inactive: -0.9%
21,CN(C)C1(CNC(=O)c2ccc(S(C)(=O)=O)cc2)CCCCC1,inactive: -0.1%
22,CC1=C2N=C(C=C3N=C(C(C)=C4[N-][C@@](C)([C@@H]5N=C1[C@](C)(CCC(=O)NC[C@@H](C)OP(=O)([O-])O[C@H]1[C@@H](O)[C@@H](n6cnc7cc(C)c(C)cc76)O[C@@H]1CO)[C@H]5CC(N)=O)[C@@](C)(CC(N)=O)[C@@H]4CCC(N)=O)[C@@](C)(CC(N)=O)[C@@H]3CCC(N)=O)C(C)(C)[C@@H]2CCC(N)=O.[C-]#N.[Co+3],inactive: -1.3%
23,O=[N+]([O-])c1cc([N+](=O)[O-])c(Nc2nnnn2CCO)c([N+](=O)[O-])c1,inactive: -9%
24,CCOC(=O)C(CC)C1=NC(C)(C)Cc2ccccc21.O=[N+]([O-])c1cc([N+](=O)[O-])c(O)c([N+](=O)[O-])c1 (stereo not drawn),inactive: 2.9%
25,COc1ccccc1OP(C)(=O)Nc1ccccc1 (stereo not drawn),inactive: -1%
26,CP(=O)(Nc1ccccc1Br)Oc1ccccc1 (stereo not drawn),inactive: 3.8%

row,Structure (SMILES),inhibition
1,CP(=S)(Nn1cnnc1)Oc1ccccc1 (stereo not drawn),inactive: 0.6%
2,CCCCOc1ccc(C(=O)NCC2(N3CCCCC3)CCCCC2)cc1OC,inactive: 12.1%
3,CP(=O)(Nc1ccccn1)Oc1ccc(Cl)cc1 (stereo not drawn),inactive: -0.1%
4,CCOP(C)(=S)SCC(=O)NC(C)C(=O)O (stereo not drawn),inactive: 0.2%
5,CCOC(=O)c1ccc(NP(C)(=O)Oc2ccc(OC)cc2)cc1 (stereo not drawn),inactive: -2.9%
6,CP(=O)(NC(=O)Nc1ccccc1)Oc1ccccc1 (stereo not drawn),inactive: -2.8%
7,CCc1ccc(OP(C)(=O)N2CCN(c3ccc([N+](=O)[O-])cc3)CC2)cc1 (stereo not drawn),inactive: 16.1%
8,Cc1cc(C)cc(OP(C)(=O)Nc2ccc(SC(F)(F)F)cc2)c1 (stereo not drawn),inactive: -3%
9,Cc1cccc(C)c1OP(C)(=O)Nc1ccc(SC(F)(F)F)cc1 (stereo not drawn),inactive: 0.7%
10,Cc1ccc(Nc2c([N+](=O)[O-])cc([N+](=O)[O-])cc2[N+](=O)[O-])cc1,inactive: -1.8%
11,CP(=O)(Nc1ccc(SC(F)(F)F)cc1)Oc1ccc(Cl)cc1 (stereo not drawn),inactive: -2.3%
12,CP(=O)(Oc1ccccc1)OC(c1ccccc1)C(F)(F)F (stereo not drawn),inactive: -5.2%
13,COc1ccccc1-c1ccccn1.O=[N+]([O-])c1cc([N+](=O)[O-])c(O)c([N+](=O)[O-])c1,inactive: -7.3%
14,CCN(CC)CCCOC(=O)C(O)(c1ccccc1)c1ccccc1,inactive: -2.9%
15,COc1ccccc1OP(C)(=O)Nc1cc(Cl)ccc1C (stereo not drawn),inactive: -4.8%
16,COc1ccc(OP(C)(=O)Nc2cccc(F)c2)cc1 (stereo not drawn),inactive: 0.7%
17,Cc1cc(C)cc(OP(C)(N)=O)c1 (stereo not drawn),inactive: 3.2%
18,CCOC(=O)c1ccc(NP(C)(=O)Oc2ccccc2)cc1 (stereo not drawn),inactive: -0.9%
19,COc1ccccc1OP(C)(=O)Nc1ccc(C)cc1 (stereo not drawn),inactive: -2.2%
20,Cc1ccc(NP(C)(=O)Oc2ccccc2)c(C)c1 (stereo not drawn),inactive: 1.5%
21,CC(C)(C)c1ccc(OP(C)(=O)Nc2ccc(SC(F)(F)F)cc2)cc1 (stereo not drawn),inactive: 1.4%
22,Cc1cccc(C)c1OP(C)(N)=O (stereo not drawn),inactive: 0.1%
23,O=[N+]([O-])c1ccc2c(c1)C=Nc1ccccc1O2,inactive: -1.3%
24,O=[N+]([O-])c1cc([N+](=O)[O-])c(Nc2cccnc2)c([N+](=O)[O-])c1,inactive: -17.8%
25,COc1cc(C(=O)NCC2(N3CCOCC3)CCCCC2)ccc1OCC(C)C,inactive: -2.1%
